{
  "source": "paper PMC11274511",
  "about": "“Synthesis of Substituted 1,2,4-Triazole-3-Thione Nucleosides Using E. coli Purine Nucleoside Phosphorylase” (Biomolecules, 2024)",
  "test_system": "HSV-1/L2/R^ACV",
  "settings": "Strain HSV-1/L2/R^ACV",
  "method": "Herpes simplex virus type 1 (HSV-1) strain L2 was obtained from the State’s collection of viruses at FSBI «N. F. Gamaleya National Research Centre for Epidemiology and Microbiology, Russian Ministry of Health, Russia» («D. I. Ivanovsky Institute of Virology» subdivision).\nAntiviral activity in vitro was measured by the method of the cytopathic effect (CPE) inhibition assay. In 96-well plastic plates with the 24 h generated cell monolayer, 2-fold serial dilutions of the compounds were prepared. Cells infected with MOI of 0.1 PFU/cell were incubated at 37 °C in 5% CO2 atmosphere. […] Antiviral activity was assessed by determining of IC50 and IC95.\nThree controls were used: (1) Toxicity control. Uninfected cells were incubated in the presence of the drug in the same concentration range as in the experiment. (2) Virus control. […] (3) Cell control. Uninfected cell cultures were incubated in the maintenance medium, which contained no drug.",
  "data": [
    {"compound": "NC(=O)c1ncn([C@@H]2O[C@H](CO)[C@@H](O)[C@H]2O)n1", "note": "[Ribavirin, reference compound]", "values": [
      {"measurement": "SI (ratio of CC50 to IC50)", "result": ">2"}
    ]}
  ]
}
